Assay: DPPH radical scavenging activity assay
Conditions: 517 nm; for Absorbance Ai (sample solution + DPPH solution): 30 min
From the text: In the DPPH molecule, due to the presence of multiple electron-withdrawing —NO2 and large π bonds of the benzene ring, nitrogen free radical is stabilized. Its methanol solution is purple and has a maximum absorption peak at 517 nm. After the addition of an antioxidant, DPPH captures an electron to be paired with the free electron, and the purple fades and turns into a yellow substance. The absorption at 517 nm disappears, and the degree of fading is quantitatively related to the number of electrons it captures. Based on this principle, a spectrophotometer is used to detect the change of the absorbance of the DPPH radical and the sample solution, and the ability of the sample to provide hydrogen atoms and scavenge free radicals can be measured. […] Vc (positive control), cinnamyl alcohol retinoic acid ester (sample), cinnamyl alcohol (control) and retinoic acid (control). The sample solution was subjected to gradient dilution with toluene, and three sets of controls were separately dissolved in a test tube with a certain amount of toluene to prepare the same concentration gradient as the sample. [table] […] Clearance calculation: Clearance Rate (%)=[1−(Ai−Aj)/Ao]*100%

Row | SMILES | Absorbance Aj (sample solution + toluene) (1.76 ppm) | Absorbance Ai (sample solution + DPPH solution) (1.76 ppm) | Absorbance Aj (sample solution + toluene) (8.80 ppm) | Absorbance Ai (sample solution + DPPH solution) (8.80 ppm) | Absorbance Aj (sample solution + toluene) (21.12 ppm) | Absorbance Ai (sample solution + DPPH solution) (21.12 ppm) | Absorbance Aj (sample solution + toluene) (42.24 ppm) | Absorbance Ai (sample solution + DPPH solution) (42.24 ppm) | Absorbance Aj (sample solution + toluene) (79.20 ppm) | Absorbance Ai (sample solution + DPPH solution) (79.20 ppm) | Absorbance Aj (sample solution + toluene) (112.64 ppm) | Absorbance Ai (sample solution + DPPH solution) (112.64 ppm) | Absorbance Aj (sample solution + toluene) (281.60 ppm) | Absorbance Ai (sample solution + DPPH solution) (281.60 ppm) | Absorbance Aj (sample solution + toluene) (492.80 ppm) | Absorbance Ai (sample solution + DPPH solution) (492.80 ppm) | Absorbance Aj (sample solution + toluene) (792.00 ppm) | Absorbance Ai (sample solution + DPPH solution) (792.00 ppm) | Absorbance Aj (sample solution + toluene) (915.20 ppm) | Absorbance Ai (sample solution + DPPH solution) (915.20 ppm)
1 | OCC=Cc1ccccc1 [Cinnamyl alcohol, cinnamyl alcohol] | 0.049 | 0.881 | 0.048 | 0.870 | 0.039 | 0.773 | 0.045 | 0.709 | 0.059 | 0.614 | 0.054 | 0.550 | 0.045 | 0.409 | 0.047 | 0.360 | 0.034 | 0.270 | 0.039 | 0.255
2 | CC1=C(/C=C/C(C)=C/C=C/C(C)=C/C(=O)OC/C=C/c2ccccc2)C(C)(C)CCC1 [Cinnamyl alcohol retinoic acid ester, (2E,4E,6E,8E)-cinnamyl 3,7-dimethyl-9-(2,6,6-trimethylcyclohex-1-en-1-yl)nona-2,4,6,8-tetraenoate] | 0.049 | 0.826 | 0.050 | 0.788 | 0.044 | 0.653 | 0.049 | 0.567 | 0.052 | 0.333 | 0.059 | 0.279 | 0.047 | 0.336 | 0.053 | 0.204 | 0.055 | 0.138 | 0.046 | 0.087
3 | O=C1O[C@H]([C@@H](O)CO)C(O)=C1O [Vc] | 0.068 | 0.718 | 0.061 | 0.624 | 0.050 | 0.222 | 0.054 | 0.142 | 0.069 | 0.091 | 0.057 | 0.078 | 0.062 | 0.076 | 0.062 | 0.070 | 0.066 | 0.074 | 0.059 | 0.065

From patent US11072575B1, “Method of preparing a cinnamyl alcohol retinoic acid ester with antioxidant and antibacterial activities” (priority 2020, dated 2021)
